Compound potency records, mixed from different reports. Data source: NIAID ChemDB in PubChem.

All rows: growth or infection tests; species: HIV-1; method: cytopathic effect / MTT; endpoint: EC50

Blank or dashed fields: not listed here. Conditions beyond the fields shown may differ between rows. ECn: concentration that inhibits the pathogen or its effect by n%. Two numbers with a dash give a range or band.

smiles,strain or isolate,mutations,cell line,result
Nc1nc2c(ncn2COCCO)c(=O)[nH]1,IIIB,,MT-4,>555 µM
C/C=C\CN1C(=O)c2cccn2S(=O)(=O)c2ccc(Cl)cc21,,,MT-4,>300 µM
Cc1cc(C)cc(S(=O)(=O)c2c(C(=O)/C=C/C(N)=O)[nH]c3ccc(Cl)cc23)c1,,RT-Y181C,MT-4,0.6 µM
COc1ccc2c(c1)C(=O)C(C1=C(Cl)C(=O)c3ccccc3C1=O)=C(Cl)C2=O,IIIB,,CEM,3.4 µM
Nc1ccn([C@@H]2OC[C@@H](CO)[C@H]2O)c(=O)n1,,,MT-4,>100 µM
CCCc1c(Cc2cc(C)cc(C)c2)n(COC/C=C/c2ccccc2)c(=O)[nH]c1=O,IIIB,,MT-4,0.06 µM
O=C1C=CN(COCc2ccccc2)S(=O)(=O)N1,,,MT-4,>400 µg/mL
CC(C)N1C(=O)c2cccn2S(=O)(=O)c2ccc(Cl)cc21,,,MT-4,>300 µM
CCc1c(Cc2cc(C)cc(C)c2)n(COC/C=C/c2ccccc2)c(=O)[nH]c1=O,NNRTI-resistant (RT Y181C) N119,RT-Y181C,MT-4,4 µM
O=S(=O)(O)c1cc(Cl)cc(Cc2cc(Cl)cc(S(=O)(=O)O)c2O)c1O,IIIB,,MT-4,>100 µg/mL
Cc1cc(C)cc(S(=O)(=O)c2c(C(=O)NCC(=O)NC(C)C(=O)NN)[nH]c3ccc(Cl)cc23)c1,IIIB,,MT-4,0.08 µM
Cc1c(Cc2c(Cl)cccc2Cl)nc(N)nc1Nc1ccc(C#N)cc1,,,MT-4,0.01 µM
CN1C(=O)c2cccn2S(=O)(=O)c2ccc(Cl)cc21,,,MT-4,20 µM
CC1=CC(=O)N(COCc2ccccc2)S(=O)(=O)N1COCc1ccccc1,,,MT-4,>400 µg/mL
CCCc1c(Cc2cc(C)cc(C)c2)n(COCC2CC=CCC2)c(=O)[nH]c1=O,NNRTI-resistant (RT Y181C) N119,RT-Y181C,MT-4,>100 µM
NC1=C(C2=C(Cl)C(=O)c3ccccc3C2=O)C(=O)c2ccccc2C1=O,IIIB,,CEM,3.5 µM
CCCCN1c2ccccc2C2C1C=C(C#N)C(=O)N2c1ccc([N+](=O)[O-])cc1,LAI,,MT-4,<1 µM
COC1=C(C2=C(Cl)C(=O)c3ccccc3C2=O)C(=O)c2ccc3c(c2C1=O)C=C[C@@](C)(CCC=C(C)C)O3,IIIB,,CEM,2.3 µM
COc1cc([C@H]2c3c(cc(OC)c(OC)c3OC)C[C@H]3CSC[C@@H]32)cc(OC)c1OC,IIIB,,MT-4,0.96 µM
CN1c2ccccc2C2C1C=CC(=O)N2c1ccc(-c2noc(=O)[nH]2)cc1,LAI,,MT-4,>32 µM
CCCc1c(Cc2ccccc2)n(COCC2CC=CCC2)c(=O)[nH]c1=O,IIIB,,MT-4,0.3 µM
CC1=CC(=O)N(Cc2ccccc2)S(=O)(=O)N1COCC[Si](C)(C)C(C)(C)C,,,MT-4,>400 µg/mL
COc1c2c(cc3c1[C@H](c1ccc(O)c(Oc4ccccc4)c1)[C@H]1C(=O)OC[C@@H]1C3)OCO2,IIIB,,MT-4,5.22 µM
O=C1C(O)=C(C2=C(C3=C(O)C(=O)c4ccccc4C3=O)C(=O)c3ccccc3C2=O)C(=O)c2ccccc21,IIIB,,CEM,11 µM
N#CC1=CN(COCc2ccccc2)S(=O)(=O)N=C1N,,,MT-4,>400 µg/mL
N#CC1=CC2Nc3ccccc3C2N(c2ccc(Br)cc2)C1=O,LAI,,MT-4,1–32 µM
CCCN1C(=O)c2cccn2S(=O)(=O)c2ccc(Cl)cc21,,,MT-4,>300 µM
Cc1cn([C@H]2C[C@H](N=[N+]=[N-])[C@@H](COP(=O)(OCCC#N)O[C@H]3CC[C@@]4(C)C(=CC[C@@H]5[C@@H]4CC[C@]4(C)C([C@H](C)CCCC(C)C)CC[C@@H]54)C3)O2)c(=O)[nH]c1=O,,,CEM,3.4 µM
CCOCn1c(Cc2ccccc2)c(C(C)C)c(=O)[nH]c1=O,IIIB,,MT-4,0.02 µM
C#CCOCN1C(=O)C=C(C)N(COCC#C)S1(=O)=O,,,MT-4,>400 µg/mL
CC(C)=CCN1Cc2cccc3[nH]c(=S)n(c23)C[C@@H]1C,IIIB,,MT-4,0.18 µM
CC(C)=CCCC1(C)C=Cc2c(ccc3c2C(=O)C(=O)C(C2=C(I)C(=O)c4ccccc4C2=O)=C3O)O1,IIIB,,CEM,1.7 µM
CC(=O)CCCCCCCCCCCCCCC(=O)OCCOCn1c(C)nc(C(C)C)c1Sc1cc(Cl)cc(Cl)c1,IIIB,,MT-4,0.008 µg/mL

The last 4 rows once more:

smiles	strain or isolate	mutations	cell line	result
C#CCOCN1C(=O)C=C(C)N(COCC#C)S1(=O)=O			MT-4	>400 µg/mL
CC(C)=CCN1Cc2cccc3[nH]c(=S)n(c23)C[C@@H]1C	IIIB		MT-4	0.18 µM
CC(C)=CCCC1(C)C=Cc2c(ccc3c2C(=O)C(=O)C(C2=C(I)C(=O)c4ccccc4C2=O)=C3O)O1	IIIB		CEM	1.7 µM
CC(=O)CCCCCCCCCCCCCCC(=O)OCCOCn1c(C)nc(C(C)C)c1Sc1cc(Cl)cc(Cl)c1	IIIB		MT-4	0.008 µg/mL